The values that follow are results of earlier work, collected in US6346251B1 (priority 1999, dated 2002).

In data set [1] the test system is human epidermoid cells, virally infected with HSV-2. The settings on record: human epidermoid cells infected with HSV-2; for hyperactive protein synthesis inhibited: by ~5 ng/ml; for Trichothecene Concentrations, Protein Synthesis Inhibition PIC100: concentration inhibiting ~100% without toxicity; for Trichothecene Concentrations, Protein Synthesis Inhibition 50% / Trichothecene Concentrations, Protein Synthesis Inhibition 80% (PIC80) / Trichothecene Concentrations, Protein Synthesis Inhibition 85% (PIC85) / Trichothecene Concentrations, Protein Synthesis Inhibition 90% (PIC90): data from Okazaki text, graph or linear interpolation.

Data set [2] has as its system human epidermoid cells. The settings on record: for Trichothecene Concentrations, PIC100 max: maximum concentration that inhibits ~100% without reducing cell viability; for safe level: non toxic level used for worst case blood scenario.

Like-named read-outs stand apart in the source and are kept apart here.

For the substance Roridin A, in data set [1], the “hyperactive protein synthesis inhibited” value is given as 100%; the “Trichothecene Concentrations, Protein Synthesis Inhibition PIC100” value was 5.0 ng/mL; the “Trichothecene Concentrations, Protein Synthesis Inhibition 50%” value is 1.4 ng/mL; the “Trichothecene Concentrations, Protein Synthesis Inhibition 80% (PIC80)” value is 2.0 ng/mL. Also, in data set [1], the “Trichothecene Concentrations, Protein Synthesis Inhibition 85% (PIC85)” value is 2.5 ng/mL and the “Trichothecene Concentrations, Protein Synthesis Inhibition 90% (PIC90)” value was 3.3 ng/mL. For the same substance, the “Trichothecene Concentrations, Protein Synthesis Inhibition PIC100” value in data set [1] (listed as Roridin) was “(PIC100 = 5 ng/ml of skin volume)”. For the same substance, in data set [2], the “Trichothecene Concentrations, PIC100 max” value is 10 ng/mL and the safe level is 10 ng/mL.

For the substance Satratoxin G, in data set [1], the “hyperactive protein synthesis inhibited” value is 100%; the “Trichothecene Concentrations, Protein Synthesis Inhibition PIC100” value was 5.0 ng/mL; the “Trichothecene Concentrations, Protein Synthesis Inhibition 50%” value was 1.5 ng/mL; the “Trichothecene Concentrations, Protein Synthesis Inhibition 80% (PIC80)” value is 2.4 ng/mL. Further, in data set [1], the “Trichothecene Concentrations, Protein Synthesis Inhibition 85% (PIC85)” value is 3.2 ng/mL and the “Trichothecene Concentrations, Protein Synthesis Inhibition 90% (PIC90)” value is 3.9 ng/mL. Besides, in data set [1] (listed as Satratoxin), the “Trichothecene Concentrations, Protein Synthesis Inhibition PIC100” value is listed as “(PIC100 = 5 ng/ml of skin volume)”. Also, in data set [2], the “Trichothecene Concentrations, PIC100 max” value was 10 ng/mL and the safe level is 10 ng/mL.
